Some compounds may have been tested in ways that are not shown here.
What was measured:
[1] = Simulated gastric fluid (SGF) stability assay; conditions: simulated gastric fluid with pepsin, pH 1.3, 37 °C, sampled up to 8 h, one-phase decay
Protocol: (§1) . Simulated gastric fluid (SGF) was prepared by dissolving 20 mg of NaCl and 8 mg of pepsin in 70 μL of concentrated HCl (32%), and the volume was diluted to 10 mL with water (pH 1.3).[36] Simulated intestinal fluid (SIF) was prepared by dissolving 68 mg of KH2PO4 in 500 μL of water followed by the addition of 800 μL of 0.2 M NaOH and 100 mg of porcine pancreatin, and the volume was adjusted to 10 mL with water (pH 6.8).[36] Peptide stock solution (2 mg/mL in water, 15 μL) was diluted in 285 μL of SGF or SIF and incubated at 37 °C. Aliquots (30 μL) were withdrawn at 0 min, 5 min, 15 min, 30 min, 1 h, 2 h, 4 h, and 8 h and subsequently quenched with 30 μL of 0.2 M Na2CO3 (SGF) or 10% aqueous TFA (SIF). The samples were centrifuged, and the supernatant (15 μL) was analyzed by analytical HPLC. The remaining peptide was determined by measuring the peak area and expressing it as a percentage of the peak area at the 0 h time point. Peptide half-life (t1/2) was determined from the degradation profiles and calculated using Prism 7 (GraphPad, La Jolla USA), assuming an exponential one-phase decay.

Amino acid sequences for entries named in this document (tags omitted). Residues count along the entry.
UniProt P25092, 24-1073 limits assumed: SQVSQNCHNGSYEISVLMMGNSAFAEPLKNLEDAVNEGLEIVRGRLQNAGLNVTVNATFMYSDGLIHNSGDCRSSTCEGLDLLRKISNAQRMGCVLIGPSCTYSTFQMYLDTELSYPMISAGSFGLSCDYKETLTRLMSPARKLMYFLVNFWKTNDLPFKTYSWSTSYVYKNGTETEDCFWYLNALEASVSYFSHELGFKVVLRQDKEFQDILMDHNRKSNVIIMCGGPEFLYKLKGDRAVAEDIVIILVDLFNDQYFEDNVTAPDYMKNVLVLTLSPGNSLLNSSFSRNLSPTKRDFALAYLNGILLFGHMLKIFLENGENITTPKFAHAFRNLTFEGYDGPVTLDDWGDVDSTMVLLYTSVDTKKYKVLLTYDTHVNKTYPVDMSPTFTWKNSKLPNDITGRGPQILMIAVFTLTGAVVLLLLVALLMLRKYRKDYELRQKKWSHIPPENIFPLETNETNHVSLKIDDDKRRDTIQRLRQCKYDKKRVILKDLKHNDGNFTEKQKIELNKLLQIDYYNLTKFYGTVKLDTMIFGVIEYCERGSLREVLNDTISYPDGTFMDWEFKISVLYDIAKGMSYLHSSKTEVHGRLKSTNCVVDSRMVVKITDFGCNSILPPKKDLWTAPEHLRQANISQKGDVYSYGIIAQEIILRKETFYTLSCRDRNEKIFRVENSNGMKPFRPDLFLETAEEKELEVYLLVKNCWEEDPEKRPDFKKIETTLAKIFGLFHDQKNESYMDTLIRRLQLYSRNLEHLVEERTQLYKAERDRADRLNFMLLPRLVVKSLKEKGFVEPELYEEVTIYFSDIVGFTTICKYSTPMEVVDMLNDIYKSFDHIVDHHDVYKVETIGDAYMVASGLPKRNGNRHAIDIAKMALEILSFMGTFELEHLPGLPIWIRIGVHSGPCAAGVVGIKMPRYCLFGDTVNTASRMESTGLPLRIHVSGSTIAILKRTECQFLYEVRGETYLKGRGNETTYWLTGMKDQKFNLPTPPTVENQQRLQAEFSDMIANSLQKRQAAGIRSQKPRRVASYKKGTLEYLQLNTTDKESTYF

[2] = Simulated intestinal fluid (SIF) stability assay; conditions: simulated intestinal fluid with porcine pancreatin, pH 6.8, 37 °C, sampled up to 8 h, one-phase decay
Protocol: as §1

GC-C receptor = GC-C receptor (Homo sapiens, UniProt P25092); test: cGMP accumulation in human T84 cells (Cisbio cGMP HTRF assay); conditions: read-out: EC50 ± SEM, 30 min, 0.5 mM IBMX, n ≥ 3
Protocol: We evaluated our linaclotide analogues for their ability to activate the GC-C receptor in human epithelial intestinal T84 cells that natively express this receptor. GC-C activation results in production of second messenger cGMP, which was measured using a commercially available kit (cGMP HTRF assay kit, Cisbio International). […] . All analogues, except [cyclic]-Linaclotide, retained the ability to increase cGMP levels at nanomolar concentrations (Figure 2B,C). […] . […] Human epithelial colorectal adenocarcinoma T84 cells (ECACC) were routinely cultured in the DMEM + Ham’s F-12 medium supplemented with 10% heat-inactivated fetal calf serum and 2 mM L-glutamine at 37 °C in 5% CO2. Assays measuring cGMP accumulation were performed following the manufacturer’s instructions (cGMP HTRF assay kit, Cisbio International). In brief, increasing concentrations of linaclotide analogues were added to 20,000 cells in DMEM/F12 media containing 0.5 mM IBMX in a white 384-well plate (Optiplate, PerkinElmer Life Sciences). The plates were incubated for 30 min at 37 °C with 5% CO2. […] The emission signals were measured at 590 and 665 nm after excitation at 340 nm using a Tecan multilabel plate reader (Thermo Fisher Scientific).

## C[C@@H]1NC(=O)[C@@H]2CCCN2C(=O)[C@H](CC(N)=O)NC(=O)[C@@H]2C[Se][Se]C[C@H](N)C(=O)N[C@H]3CSSC[C@H](NC1=O)C(=O)N[C@@H]([C@@H](C)O)C(=O)NCC(=O)N[C@H](C(=O)N[C@H](Cc1ccc(O)cc1)C(N)=O)CSSC[C@H](NC(=O)[C@H](Cc1ccc(O)cc1)NC(=O)[C@H](CCC(=O)O)NC3=O)C(=O)N2
[1]
  t1/2 SGF: >8 h
[2]
  t1/2 SIF: >8 h
GC-C receptor
  EC50: 5 nM
